Anti-infective test results gathered from many reports (values: NIAID ChemDB through PubChem).

Shared fields: tests in culture; species: HIV-1; endpoint: EC50

ECn: concentration that inhibits the pathogen or its effect by n%. Lines come from different laboratories, so protocols vary. Two numbers with a dash give a range or band.

{"structure": "C[C@H]1CO[C@@H]2CN3C=C(C(=O)NCc4ccc(Cl)nc4)C(=O)C(=O)C3C(=O)N12", "cell line": "CEM-SS", "method": "XTT", "strain or isolate": "IIIB", "value": "0.0277 µM"}
{"structure": "Cc1nc(CCCCCCC(=O)c2ccccc2)n2nc(NCCCCCCCCCCCCNCc3cn([C@H]4C=C[C@@H](CO)O4)c(=O)[nH]c3=O)ccc12", "cell line": "CEM + CEM-SS", "method": "RT activity", "strain or isolate": "Nevirapine-resistant", "value": "0.1 µM"}
{"structure": "Cc1coc(CNC(=O)C2=CN3C[C@H]4OC[C@H](C)N4C(=O)C3C(=O)C2=O)n1", "cell line": "CEM-SS", "method": "XTT", "strain or isolate": "IIIB", "value": "0.0377 µM"}
{"structure": "Cc1nc(CCCCCCC(=O)c2ccccc2)n2nc(NCCCCCCCCN)ccc12", "cell line": "PBMC", "method": "RT activity", "strain or isolate": "IIIB", "value": ">10 µM"}
{"structure": "Cc1ccc(N(C)C(=O)[C@H](Cc2cc(F)cc(F)c2)NC(=O)NS(=O)(=O)N[C@@H](Cc2cc(F)cc(F)c2)C(=O)N(C)c2ccc(C)cn2)nc1", "cell line": "MT-2", "method": "luciferase", "strain or isolate": "NL4-3", "value": "0.4 µM"}
{"structure": "O=C(c1cc2c([nH]c3ccccc32)c(-c2cccs2)n1)N1CCC(c2cccc(Cl)c2)CC1", "cell line": "C8166", "method": "p24 / antigen", "strain or isolate": "IIIB", "value": "27.9 µM"}
{"structure": "Cc1nc(CCCCCCC(=O)c2ccccc2)n2nc(NCCCCCCCCNCc3cn([C@H]4C=C[C@@H](CO)O4)c(=O)[nH]c3=O)ccc12", "cell line": "MT-4", "method": "RT activity", "strain or isolate": "IIIB", "value": "0.36 µM"}
{"structure": "COc1cccc(C2CCN(C(=O)c3cc4c([nH]c5ccccc54)c(-c4cccs4)n3)CC2)c1", "cell line": "C8166", "method": "p24 / antigen", "strain or isolate": "IIIB", "value": "1.1 µM"}
{"structure": "CC(C)(C)NC(=O)[C@@H]1CCCN1C(=O)[C@@H](O)[C@H](Cc1ccccc1)NC(=O)[C@H](CC(N)=O)NC(=O)COc1cccc([N+](=O)[O-])c1", "cell line": "MT-4", "method": "antigen", "value": "6–10 µg/mL"}
{"structure": "CCOc1ccc(N(CC)C(=O)[C@H](Cc2ccccc2)NC(=O)NS(=O)(=O)N[C@@H](Cc2ccccc2)C(=O)N(CC)c2ccc(OCC)cc2)cc1", "cell line": "MT-2", "method": "luciferase", "strain or isolate": "NL4-3", "value": "0.15 µM"}
{"structure": "COC(=O)C(=O)N1CCC[C@H]1C(=O)N[C@@H](Cc1ccccc1)C(=O)Nc1ccccc1OCC(=O)N[C@@H](CC(N)=O)C(=O)N[C@@H](Cc1ccccc1)[C@H](O)C(=O)N1CCC[C@H]1C(=O)NC(C)(C)C", "cell line": "MT-4", "method": "antigen", "value": "60 µg/mL"}
{"structure": "CCO/N=C(\\c1ccc(Br)cc1)C1CCN(C2(C)CCN(C(=O)c3c(C)cc[n+]([O-])c3C)CC2)CC1", "cell line": "U87 (CD4+ CCR5+) + U87", "method": "luciferase / entry", "strain or isolate": "JR-FL", "value": "0.018 µM"}
{"structure": "Cc1cn([C@H]2C=C[C@@H](CO)O2)c(=O)[nH]c1=O", "cell line": "CEM + CEM TK-", "method": "RT activity", "strain or isolate": "LAI", "value": "30 µM"}
{"structure": "CC(C)C1=C2[C@H]3CC[C@@H]4[C@@]5(C)CC[C@H](OC(=O)[C@H]6C[C@@H](C(=O)O)C6(C)C)C(C)(C)[C@@H]5CC[C@@]4(C)[C@]3(C)CC[C@@]2(CCNC(=O)c2cccnc2)CC1=O", "cell line": "MT-2", "method": "p24 / ELISA", "strain or isolate": "92HT599", "value": "<1 µM"}
{"structure": "C[C@H]1CO[C@@H]2CN3C=C(C(=O)NCc4nc5cc(Cl)ccc5o4)C(=O)C(=O)C3C(=O)N12", "cell line": "CEM-SS", "method": "XTT", "strain or isolate": "IIIB", "value": "0.0636 µM"}
{"structure": "CN(C(=O)[C@H](Cc1cc(F)cc(F)c1)NC(=O)c1ccc(F)c(C(=O)N[C@@H](Cc2cc(F)cc(F)c2)C(=O)N(C)c2ccc3snnc3c2)c1)c1ccc2snnc2c1", "cell line": "MT-2", "method": "luciferase", "strain or isolate": "NL4-3", "value": "0.34 µM"}
{"structure": "CC1(C)OC(c2cnn(-c3ccccc3)n2)C(C(O)CN2CCCC2)O1", "cell line": "CEM + CEM-SS", "method": "cytopathic effect / MTS", "strain or isolate": "RF", "value": ">100 µM"}
{"structure": "CN(C(=O)[C@H](Cc1cc(F)cc(F)c1)NC(=O)c1cccc(C(=O)N[C@@H](Cc2cc(F)cc(F)c2)C(=O)N(C)c2ccc3scnc3c2)c1)c1ccc2scnc2c1", "cell line": "MT-2", "method": "luciferase", "strain or isolate": "NL4-3", "value": "0.01 µM"}
{"structure": "CC(C)(C)NC(=O)[C@@H]1CCCN1C(=O)[C@@H](O)[C@H](Cc1ccccc1)NC(=O)[C@H](CC(N)=O)NC(=O)COc1ccc([N+](=O)[O-])cc1", "cell line": "MT-4", "method": "antigen", "value": "4.5 µg/mL"}
{"structure": "Cc1nc(CCCCCCC(=O)c2ccccc2)n2nc(NCCCCCCNCc3cn([C@H]4C=C[C@@H](CO)O4)c(=O)[nH]c3=O)ccc12", "cell line": "MT-4", "method": "RT activity", "strain or isolate": "IIIB", "value": "0.09 µM"}
{"structure": "Cc1nccc(CNC(=O)C2=CN3C[C@H]4OC[C@H](C)N4C(=O)C3C(=O)C2=O)n1", "cell line": "CEM-SS", "method": "XTT", "strain or isolate": "IIIB", "value": "0.0461 µM"}
{"structure": "CC(C)C1=C2[C@H]3CC[C@@H]4[C@@]5(C)CC[C@H](OC(=O)[C@H]6C[C@@H](C(=O)O)C6(C)C)C(C)(C)[C@@H]5CC[C@@]4(C)[C@]3(C)CC[C@@]2(CCNC(=O)c2ccc(Cl)cc2OCCN2CCCCC2)CC1=O", "cell line": "MT-2", "method": "p24 / ELISA", "strain or isolate": "92HT599", "value": "<1 µM"}
{"structure": "COc1ccc(N(C)C(=O)[C@H](Cc2ccccc2)NC(=O)[C@H](Cc2ccccc2)NC(=O)N[C@@H](Cc2ccccc2)C(=O)N[C@@H](Cc2ccccc2)C(=O)N(C)c2ccc(OC)cc2)cc1", "cell line": "MT-2", "method": "luciferase", "strain or isolate": "NL4-3", "value": "0.49 µM"}
{"structure": "O=C(c1cc2c([nH]c3ccccc32)c(-c2cccs2)n1)N1CCC(Cc2ccccc2)CC1", "cell line": "C8166", "method": "p24 / antigen", "strain or isolate": "IIIB", "value": "20.4 µM"}
{"structure": "CC(C)C1=C2[C@H]3CC[C@@H]4[C@@]5(C)CC[C@H](OC(=O)[C@H]6C[C@@H](C(=O)O)C6(C)C)C(C)(C)[C@@H]5CC[C@@]4(C)[C@]3(C)CC[C@@]2(CCNC(=O)c2ccc(Cl)cn2)CC1=O", "cell line": "MT-2", "method": "p24 / ELISA", "strain or isolate": "92HT599", "value": "<1 µM"}
{"structure": "NC(=O)c1cc(-c2cccnc2[C@H](Cc2cc(F)cc(F)c2)NC(=O)NS(=O)(=O)N[C@@H](Cc2cc(F)cc(F)c2)c2ncccc2-c2ccc(F)c(C(N)=O)c2)ccc1F", "cell line": "MT-2", "method": "luciferase", "strain or isolate": "NL4-3", "value": "0.15 µM"}
{"structure": "CC(C)(C)NC(=O)[C@@H]1CCCN1C(=O)[C@@H](O)[C@H](Cc1ccccc1)NC(=O)[C@H](CC(N)=O)NC(=O)OCc1ccccc1", "cell line": "MT-4", "method": "antigen", "value": "<1 µg/mL"}
{"structure": "CC(C)C1=C2[C@H]3CC[C@@H]4[C@@]5(C)CC[C@H](OC(=O)[C@H]6C[C@@H](C(=O)O)C6(C)C)C(C)(C)[C@@H]5CC[C@@]4(C)[C@]3(C)CC[C@@]2([C@@H](O)CNC(=O)c2cccnc2N2CCOCC2)CC1=O", "cell line": "MT-2", "method": "p24 / ELISA", "strain or isolate": "92HT599", "value": "<1 µM"}
{"structure": "NC(=O)CCNC(=O)c1ccccc1S", "cell line": "PBMC", "method": "absorbance", "value": "0.527 µM"}
{"structure": "CC(C)C1=C2[C@H]3CC[C@@H]4[C@@]5(C)CC[C@H](OC(=O)[C@H]6C[C@@H](C(=O)O)C6(C)C)C(C)(C)[C@@H]5CC[C@@]4(C)[C@]3(C)CC[C@@]2([C@@H](O)CNCC(C)(CCCCN)NC(=O)c2ccc(Cl)cc2)CC1=O", "cell line": "MT-2", "method": "p24 / ELISA", "strain or isolate": "92HT599", "value": "<1 µM"}
{"structure": "CN(C(=O)[C@H](Cc1cc(F)cc(F)c1)NC(=O)NS(=O)(=O)N[C@@H](Cc1cc(F)cc(F)c1)C(=O)N(C)c1ccc(F)c(F)c1)c1ccc(F)c(F)c1", "cell line": "MT-2", "method": "luciferase", "strain or isolate": "NL4-3", "value": "0.31 µM"}
{"structure": "CCC1CCCCN1CC(O)C1OC(C)(C)OC1c1cnn(-c2ccccc2)n1", "cell line": "CEM + CEM-SS", "method": "cytopathic effect / MTS", "strain or isolate": "RF", "value": ">100 µM"}
{"structure": "[2H]c1nc2cc(N(C)C(=O)[C@H](Cc3cc(F)cc(F)c3)NC(=O)NS(=O)(=O)N[C@@H](Cc3cc(F)cc(F)c3)C(=O)N(C)c3ccc4sc([2H])nc4c3)ccc2s1", "cell line": "MT-2", "method": "luciferase", "strain or isolate": "NL4-3", "value": "0.02 µM"}
{"structure": "CCOCc1cn([C@H]2C=C[C@@H](CO)O2)c(=O)[nH]c1=O", "cell line": "CEM + CEM-SS", "method": "RT activity", "strain or isolate": "LAI", "value": "2.6 µM"}
{"structure": "O=C(O)c1ccc2c(c1)C(=O)N(c1ccc(-c3cc(-c4ccc(N5C(=O)c6ccc(C(=O)O)cc6C5=O)cc4)nc(-c4ccccc4)n3)cc1)C2=O", "cell line": "MT-4", "method": "cytopathic effect / propidium iodide", "value": "20 µM"}
{"structure": "CC(C)C1=C2[C@H]3CC[C@@H]4[C@@]5(C)CC[C@H](OC(=O)[C@H]6C[C@@H](C(=O)O)C6(C)C)C(C)(C)[C@@H]5CC[C@@]4(C)[C@]3(C)CC[C@@]2([C@@H](O)CNCC(C)(C)NC(=O)c2ccc(Cl)cc2OCCN2CCCCC2)CC1=O", "cell line": "MT-2", "method": "p24 / ELISA", "strain or isolate": "92HT599", "value": "<1 µM"}
{"structure": "COc1ccc(N(C)C(=O)[C@H](Cc2cc(F)cc(F)c2)NC(=O)c2ccc(F)c(C(=O)N[C@@H](Cc3cc(F)cc(F)c3)C(=O)N(C)c3ccc(OC)nc3)c2)cn1", "cell line": "MT-2", "method": "luciferase", "strain or isolate": "NL4-3", "value": "0.37 µM"}

For reference, 4 entries again:

structure | cell line | method | strain or isolate | value
Cc1nc(CCCCCCC(=O)c2ccccc2)n2nc(NCCCCCCCCCCCCNCc3cn([C@H]4C=C[C@@H](CO)O4)c(=O)[nH]c3=O)ccc12 | CEM + CEM-SS | RT activity | Nevirapine-resistant | 0.1 µM
CCOCc1cn([C@H]2C=C[C@@H](CO)O2)c(=O)[nH]c1=O | CEM + CEM-SS | RT activity | LAI | 2.6 µM
Cc1nc(CCCCCCC(=O)c2ccccc2)n2nc(NCCCCCCCCNCc3cn([C@H]4C=C[C@@H](CO)O4)c(=O)[nH]c3=O)ccc12 | MT-4 | RT activity | IIIB | 0.36 µM
C[C@H]1CO[C@@H]2CN3C=C(C(=O)NCc4nc5cc(Cl)ccc5o4)C(=O)C(=O)C3C(=O)N12 | CEM-SS | XTT | IIIB | 0.0636 µM